For the data set, the system named is 12 typical food-pathogens. The following applies: ratio of MHC to GM.

No end group written: not given here.

Turning to RKWRIVVIRVRR-NH2 [K2W3V10R11], the “SI (selectivity index)” value amounted to 26.9.

Take RRWRIVVIRWRR-NH2 [R2W3W10R11]: the “SI (selectivity index)” value came out at 4.2.

As for RWKRIVVIRKRR-NH2 [W2K3K10R11], the “SI (selectivity index)” value worked out at 3.0.

Turning to RKRRIVVIRRKR-NH2 [K2R3R10K11], the “SI (selectivity index)” value is 2.7.

For the substance RWRRIVVIRVRR-NH2 [W2R3V10R11], the “SI (selectivity index)” value came out at 21.5.

For RRFRIVVIRWLR-NH2 [R2F3W10L11], the “SI (selectivity index)” value is listed as 4.0.
